For data set [1], the system named is 5 food risk microorganisms. As to the kind of experiment: Bacterial lysis efficacy by optical density, overall statements. It counts as cell-based.
The test system of a further data set is food risk microorganism. The experiment in a line: Coloring reaction test for different concentrations of chromogenic reagent, microorganism not named at the place. It counts as biochemical. As to conditions: 30 minutes at 37° C.
Data set [2] relates to Salmonella spp. The experiment in a line: Coloring test of microfluidic paper chip. The note with it: 5 μL loaded, 30 minutes at 37° C.
For another data set, the system named is Escherichia coli. The experiment in a line: Coloring test of microfluidic paper chip. As to conditions: 5 μL loaded, 30 minutes at 37° C.
For data set [3], the system named is Salmonella spp. The experiment in a line: Coloring reaction test of chromogenic reagents, 96 well plate. It is filed as biochemical. The note with it: 30 minutes at 37° C.
Another data set concerns Staphylococcus aureus. The description is as above. It counts as biochemical. As to conditions: 30 minutes at 37° C.

Consider `CCCCCCCc1ccc(C(O)CC[N+](C)(C)CCCS(=O)(=O)[O-])cc1` (centres unmarked) [C7BzO, 3-[[3-(4-heptylphenyl)-3-hydroxypropyl]-dimethylazaniumyl]propane-1-sulfonate], for which the “C7BzO concentration at which lysis efficacy increased the most” value in data set [1] (added to 1% (v/v) SB3-14, table 8) was 0.1 % (v/v).

For the compound `CCCCCCCC(=O)Oc1c[nH]c2cc(Cl)c(Br)cc12` [Magenta-caprylate, 5-Bromo-6-chloro-3-indoxyl caprylate], in the data set on food risk microorganism, the “final concentration showing a strong coloring reaction” value fell in the range of 5 to 10 mM and the “final concentration showing the strongest coloring reaction” value is 10 mM.

Consider `CCCCCCCCCCCCCC[N+](C)(C)CCCS(=O)(=O)[O-]` [SB3-14], for which, in data set [1] (tables 5 and 6, except for Vibrio vulnificus), the “concentration at which the best bacterial lysis efficacy is expressed” value is given as 1%.

`OC[C@H]1O[C@H](Oc2c[nH]c3cc(Cl)ccc23)[C@H](O)[C@@H](O)[C@@H]1O` [Salmon-alpha-glucospyranoside, 6-Chloro-3-indoxyl-alpha-D-glucopyranoside]: in the data set with Salmonella spp. [2], the “most preferable concentration of chromogenic reagent loaded on paper chip” value (shortened to “most preferable concentration”) turned out to be 200 mM and the “preferable concentration of chromogenic reagent loaded on paper chip” value fell in the range of 25 to 300 mM.

With `O.O.O.O=C([O-])[C@H]1O[C@@H](Oc2c[nH]c3ccc(Br)c(Cl)c23)[C@H](O)[C@@H](O)[C@@H]1O.[Na+]` [X-beta-glucuronide, 5-Bromo-4-chloro-3-indoxyl-beta-D-glucuronic acid Sodium salt trihydrate], in the data set with food risk microorganism, the “final concentration showing a strong coloring reaction” value is 5 to 10 mM and the “final concentration showing the strongest coloring reaction” value amounted to 10 mM. In addition, in the data set with Escherichia coli, the “most preferable concentration” value stood at 100 mM and the “preferable concentration of chromogenic reagent loaded on paper chip” value was in the range of 25 to 200 mM.

On to `O=P([O-])([O-])Oc1c[nH]c2ccc(Br)c(Cl)c12.[Na+].[Na+]` [X-phosphate, 5-Bromo-4-chloro-3-indoxyl phosphate, disodium salt], for which, in the data set on Salmonella spp. [3], the “final concentration showing a strong coloring reaction” value was in the range of 5 to 10 mM and the “final concentration showing the strongest coloring reaction” value was 10 mM. Moreover, the “final concentration showing a strong coloring reaction” value with Staphylococcus aureus lay in the range of 5 to 10 mM. In the data set on Salmonella spp. [2], the “most preferable concentration” value was 50 mM and the “preferable concentration of chromogenic reagent loaded on paper chip” value was 25 to 100 mM.

Consider “Aldol ® 518 myo-inositol-1-phosphate [Aldol-myo-inositol-1-phosphate]”, for which, in the data set on food risk microorganism, the “final concentration showing a strong coloring reaction” value was 2 to 4 mM and the “final concentration showing the strongest coloring reaction” value stood at 4 mM.

The values above are taken from patent US20200298233A1, “MICROFLUIDIC PAPER CHIP FOR DETECTING MICRO-ORGANISM, METHOD FOR PREPARING THE SAME AND METHOD FOR DETECTING MICRO-ORGANISM USING THE SAME” (BIOMAX CO., LTD., priority 2017, published 2020).
